We go through 3 molecules from article PMC9575645 (Signal Transduction and Targeted Therapy, 2022).

Data set [1] in a line: Lung and blood distribution in mice (LC-MS). The conditions noted are these: 10 mg kg^-1 d^-1 IP Bid for one day, samples 6 h after last treatment. It counts as in vivo, C57BL/6J mice.
Data set [2] can be described thus: In vivo toxicity in mice (body weight, gross and histopathological organ changes). The conditions noted are these: 10 mg kg^-1 d^-1 atglistatin and 2 mg kg^-1 d^-1 oseltamivir, singly or in combination.
Data set [3] in a line: Lung and blood distribution in hamsters (LC-MS). The class given is in vivo, Syrian hamsters. The conditions noted are these: 80 mg kg^-1 d^-1 IP Bid for one day, samples 6 h after last treatment.
The test system of data set [4] is SARS-CoV-2 KCDC03 strain. Also on record: species or system Syrian hamsters. The note with it: hamster, in vivo.

Regarding `COc1nn(-c2ccc(NC(=O)OCc3ccccc3)c(C)c2)c(=O)o1` [CAY10499], in data set [1], the “lung and blood distribution” value is recorded as “accumulated in the lungs”.
Consider `CCOC(=O)C1=C[C@@H](OC(CC)CC)[C@H](NC(C)=O)[C@@H](N)C1` [oseltamivir], for which, in data set [2], the “toxicity, including body weight loss” value is “no toxicity”.
`CN(C)C(=O)Nc1cccc(-c2ccc(N(C)C)cc2)c1` [Atglistatin]: the “lung and blood distribution” value in data set [1] and in data set [3] was “accumulated in the lungs” each time. Further, the “toxicity, including body weight loss” value in data set [2] was “no toxicity”. Besides, the “SARS-CoV-2 genome copy number and infectious progeny production in lungs” value in data set [4] was “Reduction in SARS-CoV-2 genome copy number and infectious progeny production”. The histological lung lesions entry in data set [4] is given as “Amelioration of histological lung lesions”.
